Anti-infective test results gathered from many reports (values: NIAID ChemDB through PubChem).

All rows: growth or infection tests; organism: Plasmodium falciparum; endpoint: EC50

Lines come from different laboratories, so protocols vary.

smiles	strain or isolate	changes	method	result
CCCC[C@@H]1C[C@@H]2CCC[C@@H]3C[C@H](CCCC)NC(=N1)N32	D6	-	LDH	2.99 µM
C[C@H]1CCc2c([nH]c3ccccc23)[C@@]2(N1)C(=O)Nc1ccc(Cl)cc12	KAE609R-1	KAE609-resistant (I398F/P990R/D1247Y)	SYBR Green / fluorescence	0.328 µM
O=C(Nc1cc(C(F)(F)F)ccc1-n1cncn1)C1(c2ccccc2)CC1	FCR3	-	-	0.142 µM
Cc1cccc(CCC2CC3CCC4CC(C)NC(=N2)N34)c1	W2	-	LDH	8.05 µM
COc1ccccc1C1(O)C(N)=Nc2ccc(Cl)cc21	3D7	-	-	0.024 µM
O=C1[C@@H](NCCCNc2ccnc3cc(Cl)ccc23)[C@@H](/C=C/c2ccccc2)N1C1CCCCCC1	W2	Chloroquine-resistant	flow cytometry	0.176 µM
Cc1[nH]nc2c1C(c1cc(Cl)cc(N3CCOCC3)c1)(C1CCC1)C(C#N)=C(N)O2	NF54	-	radiometric	0.6 µM
CC(Nc1ccc2c(c1)CCC2)C(=O)Nc1cc(C(F)(F)F)ccc1-n1cncn1	3D7A	-	-	0.146 µM
O=C1Nc2ccccc2C1(O)c1ccccc1	3D7	-	-	>5 µM
O=C(CCCNc1ccnc2cc(Cl)ccc12)N[C@H]1C(=O)N(C2CCCCC2)[C@H]1/C=C/c1ccccc1	W2	Chloroquine-resistant	flow cytometry	0.5567 µM
C[C@H]1Cc2c([nH]c3cc(Cl)c(F)cc23)[C@@]2(N1)C(=O)Nc1ccc(Cl)cc12	GNF-Pf4492R-3	GNF-Pf4492-resistant A187V	SYBR Green / fluorescence	0.00239 µM
C#CCCC1CC2CCC3CC(C)NC(=N1)N23	W2	-	LDH	20.6 µM
CCCCN1C(=O)[C@@H](NCCCNc2ccnc3cc(Cl)ccc23)[C@H]1/C=C/c1ccccc1	W2	Chloroquine-resistant	flow cytometry	0.3977 µM
Cc1[nH]nc2c1C(c1cc(Br)cc(C#N)c1)(C1CC=CC1)C(C#N)=C(N)O2	NF54	-	radiometric	0.43 µM
NC1=Nc2ccc(Cl)cc2[C@@]1(O)c1ccccc1	Dd2	-	-	1.46 µM
Cc1[nH]nc2c1C(c1cc(C#N)cc(C#N)c1)(C1CC=CC1)C(C#N)=C(N)O2	NF54	-	radiometric	1.42 µM
CCN(CC)CCCC(C)Nc1ccnc2cc(Cl)ccc12	KAE678R-2	KAE678-resistant pfatp4 A184S/P990R	SYBR Green / fluorescence	0.0119 µM
NC1=Nc2ccc(Cl)cc2C1(O)C#Cc1ccccc1	3D7	-	-	1.16 µM
CCCCC[C@@H]1C[C@@H]2CCC[C@@H]3C[C@H](CCCCC)NC(=N1)N32	W2	-	LDH	2.82 µM
CCc1[nH]nc2c1C(c1cc(Cl)cc(Cl)c1)(C1CCC1)C(C#N)=C(N)O2	NF54	-	radiometric	>2.57 µM
O=C1[C@@H](NCCNc2ccnc3cc(Cl)ccc23)[C@@H](/C=C/c2ccccc2)N1c1ccccc1	W2	Chloroquine-resistant	flow cytometry	0.1353 µM
Cc1[nH]nc2c1C(c1cc(C#N)cc(C#N)c1)(C(C)C)C(C#N)=C(N)O2	NF54	-	radiometric	0.69 µM
C#CCC[C@@H]1C[C@@H]2CCC[C@@H]3C[C@H](CCC#C)NC(=N1)N32	D6	-	LDH	14.13 µM
Cc1ccccc1CC1(O)C(N)=Nc2ccc(Cl)cc21	Dd2	-	-	0.139 µM
COC(=O)c1ccc(-c2cc(C#N)cc(C3(C(C)C)C(C#N)=C(N)Oc4n[nH]c(C)c43)c2)o1	NF54	-	radiometric	0.14 µM

Repeating the first 3 entries:

smiles	strain or isolate	changes	method	result
CCCC[C@@H]1C[C@@H]2CCC[C@@H]3C[C@H](CCCC)NC(=N1)N32	D6	-	LDH	2.99 µM
C[C@H]1CCc2c([nH]c3ccccc23)[C@@]2(N1)C(=O)Nc1ccc(Cl)cc12	KAE609R-1	KAE609-resistant (I398F/P990R/D1247Y)	SYBR Green / fluorescence	0.328 µM
O=C(Nc1cc(C(F)(F)F)ccc1-n1cncn1)C1(c2ccccc2)CC1	FCR3	-	-	0.142 µM

ECn: concentration that inhibits the pathogen or its effect by n%. Blank or dashed fields: not listed here.